PubChem BioAssay AID1259414 – Drosophila RNAi Screening Center – 2018

- Assay: 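Genome-wide screen for host control of endosymbiont load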 (primary screen)
- Cell system: Drosophila JW18 cells infected with Wolbachia
- Reagents: long dsRNA against Drosophila genes, 0.25 µg dsRNA per well of a 384-well plate
- Duration: 5 days
- Challenge: cells persistently infected with Wolbachia before knock-down; no added drug
- Detection: 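Automated imaging of bacterial rRNA staining divided by host cell count, reported as plate-normalised robust z-score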
- Direction: Wolbachia per cell robust z: higher = more Wolbachia per host cell than the plate typical
- Rule for the call: 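Active if absolute robust z reaches 1.5 in two or more of three replicates, leaving out multi- or no-target dsRNAs, genes unexpressed in JW18 and A1 wells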
The screen tested about 24,000 reagents; this is an unselected part of those that have a named target and a result. In the full data, about 1,210 (5%) are marked active. 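Inactive calls also include excluded dsRNAs with several or no targets, genes unexpressed in JW18, and well A1, regardless of score.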 Names joined by + are all predicted targets of the reagent.

gene | DRSC id | Wolbachia per cell robust z, rep 1 | Wolbachia per cell robust z, rep 2 | Wolbachia per cell robust z, rep 3 | activity call
chrb (charybde) | DRSC11335 | 0.69 | 0.308 | -0.59 | inactive
chrb (charybde) | DRSC25273 | 0.081 | 0.00248 | -0.652 | inactive
CG13728 | DRSC10056 | 1.52 | -0.61 | -0.0977 | inactive
CG14434 | DRSC17927 | 0.746 | -3.99 | -2.99 | active
CG10864 | DRSC14273 | -1.82 | -0.143 | -0.261 | inactive
Amph (Amphiphysin) | DRSC07578 | 0.477 | -6.7 | -3.81 | active
Amph (Amphiphysin) | DRSC41537 | -0.508 | 0.361 | 0.787 | inactive
GCC88 (GRIP and coiled-coil domain containing 88 kDa) | DRSC14264 | 0.0918 | -6.38 | -0.635 | inactive
GCC88 (GRIP and coiled-coil domain containing 88 kDa) | DRSC29299 | -0.601 | -0.351 | 0.939 | inactive
CG10063 | DRSC09688 | -1.18 | -1.63 | 0.323 | inactive
CG10063 | DRSC28872 | -0.335 | 0.31 | 1.04 | inactive
Kyat (Kynurenine aminotransferase) | DRSC16147 | -0.372 | 1.34 | 0.324 | inactive
RhoGEF2 (Rho guanine nucleotide exchange factor 2) | DRSC07531 | -0.374 | -3.5 | 0.541 | inactive
RhoGEF2 (Rho guanine nucleotide exchange factor 2) | DRSC29373 | 0.804 | 0.566 | 0.172 | inactive
Mdr50 (Multi drug resistance 50) | DRSC07467 | 0.0643 | -1.66 | -2.44 | active
Mdr50 (Multi drug resistance 50) | DRSC23705 | 0.855 | -0.335 | -0.675 | inactive
CG33144 | DRSC07024 | 1.3 | 1.5 | 0.392 | inactive
CG33144 | DRSC25033 | -0.595 | 0.233 | 0.542 | inactive
enok (enoki mushroom) | DRSC04096 | 0.425 | 1.96 | 1.02 | inactive
CG30196 | DRSC04156 | -3.26 | -0.422 | -6.98 | active
CG32119 | DRSC09248 | 0.718 | 0.465 | 0.334 | inactive
CG32119 | DRSC21462 | -1.4 | -0.0719 | 0.066 | inactive
CG32119 | DRSC29122 | -1.76 | -1.75 | -2.16 | inactive
Sply (Sphingosine-1-phosphate lyase) | DRSC07299 | -1.8 | 0.112 | 1.06 | inactive
Sply (Sphingosine-1-phosphate lyase) | DRSC27378 | 0.945 | 0.765 | 0.819 | inactive
Gat (GABA transporter) | DRSC17144 | -4.18 | -0.29 | -6.48 | inactive
CG11898 | DRSC14432 | -0.678 | -3.13 | -6.57 | inactive
CG11898 | DRSC27906 | 1.27 | 1.31 | 0.0445 | inactive
CG11413 + CG4622 | DRSC04109 | 0.364 | -5.5 | -0.236 | inactive
dind (diamond) | DRSC16294 | -0.317 | -0.228 | 0.739 | inactive
dind (diamond) | DRSC27615 | -0.556 | -1.02 | -2.31 | inactive
upd2 (unpaired 2) | DRSC19969 | 1.25 | 0.572 | 0.472 | inactive
upd2 (unpaired 2) | DRSC24190 | 0.309 | 3.7 | 1.3 | inactive
Dip-C (Dipeptidase C) | DRSC15855 | -1.51 | -1.91 | 0.882 | active
CG31674 | DRSC03208 | 0.947 | 0.25 | -4.76 | inactive
CG31674 | DRSC27032 | -0.737 | 1.45 | 0.0974 | inactive
fd3F + CR42499 | DRSC18160 | 0.667 | 0.564 | -1.17 | inactive
fd3F + CR42499 | DRSC18161 | 0.089 | -0.997 | -0.871 | inactive
fd3F + CR42499 | DRSC28554 | 0.757 | -0.472 | 0.83 | inactive
COX8 (Cytochrome c oxidase subunit 8) | DRSC11814 | 0.204 | 0.0539 | -0.345 | inactive
COX8 (Cytochrome c oxidase subunit 8) | DRSC28975 | -0.548 | -0.968 | -1.96 | inactive
CG31612 | DRSC03697 | -2.86 | -1.91 | -0.326 | active
CG31612 | DRSC03698 | 0.0103 | 1.2 | -3.91 | inactive
Vps24 (Vacuolar protein sorting 24) | DRSC12332 | -0.289 | 0.0508 | -0.275 | inactive
Vps24 (Vacuolar protein sorting 24) | DRSC29224 | 0.455 | -0.341 | -3.75 | inactive
Past1 (Putative Achaete Scute Target 1) | DRSC16784 | 0.759 | 0.512 | 0.464 | inactive
